A mixed list of measured activities; the numbers were collected in NIAID ChemDB.

Common to all: whole-cell or culture tests; organism: Human cytomegalovirus

ECn: concentration that inhibits the pathogen or its effect by n%.

SMILES | cell line | setting | strain | read by | endpoint | result
Nc1nc(NC2CC2)c2ncn(COCCCP(=O)(O)O)c2n1 | HFF |  | AD169 | plaque count | EC50 | >90 µM
CCOP(=O)(O)CCC(CO)OCn1cnc2c(=O)[nH]c(N)nc21 | MRC-5 |  | C8708 (ganciclovir-susceptible) | plaque count | EC50 | 34 µg/mL
Nc1ncnc2c1ncn2[C@H]1C[C@@]12C[C@@H]2CO | HFF |  | TOWNE | plaque count | EC50 | >100 µM
CC#CC=C[C@H]1O[C@@H](n2cnc3c(N)ncnc32)[C@H](O)[C@@H]1O | HEL |  | AD169 |  | EC50 | 50 µM
Nc1ncnc2c1ncn2[C@H]1C[C@@]12C[C@H]2CO | HFF |  | TOWNE | plaque count | EC50 | >100 µM
Clc1ccc(Nc2ncnc3ccccc23)cc1Cl | HFF |  | AD169 | plaque count | EC50 | >3 µM
Nc1nc2c(ncn2COC(CO)CO)c(=O)[nH]1 | HEL |  | CMV (AD 169) | plaque count | EC50 | 7.5 µM
Nc1nc2c(ncn2C[C@H]2CC[C@@H](P(=O)(O)O)O2)c(=O)[nH]1 | FLOW 2002 |  | WF1 | plaque count | EC50 | 50 µg/mL
Nc1ncnc2c1ncn2[C@H]1C[C@]12C[C@H]2CO | HFF |  | TOWNE | plaque count | EC50 | 20 µM
C[C@H]1[C@H](O)[C@@H](CO)O[C@H]1n1cc(I)c(=O)[nH]c1=O | MRC-5 |  | AD169 | plaque count | EC50 | >61.27 µg/mL
CCCCCCCCCCCCCCCCCCOCCOP(=O)(O)CCCOCn1cnc2c(=O)[nH]c(N)nc21 | HFF |  | AD169 | plaque count | EC50 | 0.48 µM
CCCC(=O)OCC(COC(=O)CCC)OCn1cnc2c(=O)[nH]c(N)nc21 | HFF |  |  | plaque count | EC50 | 1.3 µg/mL
COc1cc2ncnc(Nc3ccc(Br)cc3)c2cc1OC | HFF |  | AD169 | plaque count | EC50 | <3 µM
O=C1c2sc3ccccc3c2N(Cc2ccc(Cl)cc2)S(=O)(=O)N1Cc1ccc(Cl)cc1 | MRC-5 |  | AD169 | plaque count | EC50 | 3.9 µM
CCCC(=O)OCC(CO)OCn1cnc2c(=O)[nH]c(N)nc21 | HFF |  |  | plaque count | EC50 | 0.53 µg/mL
O=c1[nH]c(=O)n([C@@H]2CO[C@H](CO)S2)cc1/C=C/Br |  |  | WFI |  | EC50 | >100 µg/mL
C[C@H]1[C@H](O)[C@@H](CO)O[C@H]1n1cc(Br)c(=O)[nH]c1=O | MRC-5 |  | AD169 | plaque count | EC50 | >100 µg/mL
O=C(COc1cccc2ccccc12)NN=CCc1ccccc1 | HEL |  | AD169 | plaque count | EC50 | >20 µg/mL
O=c1[nH]cnc2c1ncn2OCCOCP(=O)(O)O | MRC-5 |  | AD169 | plaque count | EC50 | >340 µM
Nc1nc(N)c2ncn(C[C@H]3CO[C@H](P(=O)(O)O)O3)c2n1 | FLOW 2002 |  | WF1 | plaque count | EC50 | 8 µg/mL
Brc1ccc(Nc2ncnc3ccccc23)cc1 | HFF |  | AD169 | plaque count | EC50 | >3 µM
O=C1c2sccc2N(Cc2ccc(Cl)cc2)S(=O)(=O)N1Cc1ccccc1 | MRC-5 |  | AD169 | plaque count | EC50 | 8.3 µM
O=c1[nH]c(=O)n([C@H]2CO[C@@H](CO)O2)cc1/C=C/Br |  |  | WFI |  | EC50 | >100 µg/mL
Nc1nc(=O)n([C@@H]2O[C@H](CO)[C@@H](O)[C@@H]2F)cc1I | MRC-5 |  | AD169 | plaque count | EC50 | 0.8 µg/mL
Nc1nc2c(ncn2COC(CO)CO)c(=O)[nH]1 | HFF |  | MAJOR | plaque count | EC50 | 4.8 µM
O=S1(=O)N=C(OCc2ccc(Cl)cc2)C=CN1Cc1ccc(Cl)cc1 | MRC-5 |  | AD169 | plaque count | EC50 | 12.5 µM
Cc1c[nH]c(=O)n(C[C@H]2CS[C@H](P(=O)(O)O)O2)c1=O | FLOW 2002 |  | WF1 | plaque count | EC50 | 6 µg/mL
Nc1nc2c(ncn2COC(CO)CO)c(=O)[nH]1 | MRC-5 |  | AD169 | plaque count | EC50 | 1.2 µM
Nc1nc2c(ncn2[C@H]2C[C@]23C[C@H]3CO)c(=O)[nH]1 | HFF |  | TOWNE | plaque count | EC50 | >100 µM
CCCCCCCCCCCCCCCCOCCCOP(=O)(O)CCCOCn1cnc2c(NC3CC3)nc(N)nc21 | HFF |  | AD169 | plaque count | EC50 | 1.6 µM
O=c1[nH]c(=O)n([C@@H]2CO[C@@H](CO)S2)cc1/C=C/Br |  |  | WFI |  | EC50 | 80 µg/mL
Nc1nc(Cl)c2ncn(OCCOCP(=O)(O)O)c2n1 | MRC-5 |  | AD169 | plaque count | EC50 | 0.62 µM
O=c1[nH]c(=O)n([C@@H]2CO[C@@H](CO)O2)cc1/C=C/Br |  |  | WFI |  | EC50 | 25 µg/mL
CCCCCCCC/C=C\CCCCCCCCOCCOP(=O)(O)CCCOCn1cnc2c(=O)[nH]c(N)nc21 | HFF |  | AD169 | plaque count | EC50 | 0.59 µM
Nc1ncnc2c1ncn2C=C1CC1CO |  |  | VR5120 (ganciclovir-resistant) | plaque count | EC90 | 4.2 µM
CN(Cc1cnc2nc(N)nc(N)c2n1)c1ccc(C(=O)N[C@@H](CCC(=O)O)C(=O)O)cc1 | MRC-5 | 24 h | TOWNE |  | EC50 | >0.2 µM
CCCC(C)Nc1ccc(Oc2ccc(O)cc2)cc1 |  |  | AD169 | virus yield | EC50 | 0.6 µM
Nc1ncnc2c1ncn2[C@H]1C[C@]12C[C@@H]2CO | HFF |  | TOWNE | plaque count | EC50 | 28 µM
Nc1nc2c(ncn2C[C@@H]2CC[C@H](P(=O)(O)O)O2)c(=O)[nH]1 | FLOW 2002 |  | WF1 | plaque count | EC50 | 0.5 µg/mL
CC(=O)OCC(COC(C)=O)OCn1cnc2c(=O)[nH]c(N)nc21 | HFF |  |  | plaque count | EC50 | 0.54 µg/mL

The last 2 rows once more:

SMILES | cell line | setting | strain | read by | endpoint | result
Nc1nc2c(ncn2C[C@@H]2CC[C@H](P(=O)(O)O)O2)c(=O)[nH]1 | FLOW 2002 |  | WF1 | plaque count | EC50 | 0.5 µg/mL
CC(=O)OCC(COC(C)=O)OCn1cnc2c(=O)[nH]c(N)nc21 | HFF |  |  | plaque count | EC50 | 0.54 µg/mL

An empty or dashed field is not shown. Neighbouring rows are from separate reports.